Results of unrelated studies side by side (data: NIAID ChemDB).

All rows: whole-cell or culture tests; organism: Mycobacterium fortuitum; read-out: MIC

Rows are shuffled and stem from different studies. Two numbers with a dash give a range or band. An empty or dashed field is not shown.

smiles	strain	method	result
CO[C@@]1(NC(=O)C2SC(=C(C(N)=O)C(=O)[O-])S2)C(=O)N2C(C(=O)[O-])=C(CSc3nnnn3C)CS[C@@H]21	1004-8		100 µg/mL
COc1ccc(/C=N/NC(=O)c2cnc3cc(F)ccc3c2NC(CSc2ccccc2)CC(=O)N(C)C)cc1	ATCC 19542	resazurin	>100 µg/mL
COC(=O)/C=C/C(=O)c1ccc(C(C)(C)C)cc1			4 µg/mL
CCCCCCCC/C=N/NC(=O)c1cnc2cccc(C(F)(F)F)c2c1NC(CSc1ccccc1)CC(=O)N(C)C	ATCC 19542	resazurin	5 µg/mL
CCCN(CCC)c1nc(C(N)=S)cnc1C(N)=O	1021		>100 µg/mL
CCSc1ccnc(C(N)=S)c1	1021		500 µM
CCn1cc(C(=O)O)c(=O)c2ccc(-c3nc(C)c(C)s3)cc21			12.5 µg/mL
C[C@H]1COc2c(N3CCN(C)CC3)c(F)cc3c(=O)c(C(=O)O)cn1c23	ATCC 6841		4 µg/mL
O=C(NNC(=S)Nc1ccc(C(=O)O)c(O)c1)c1ccncc1	ATCC 6841	broth dilution	>128 µg/mL
C[C@@H]1CN(c2c(F)c(N)c3c(=O)c(C(=O)O)cn(C4CC4)c3c2F)C[C@H](C)N1	ATCC 6841		0.3 µg/mL
COc1cc2c(cc1O)CCc1cc(OC)c(OC)c(O)c1-2			25 µg/mL
Cc1c(N2C(=O)CC(=O)N(c3ccc(C(=O)O)c(O)c3)C2=S)c(=O)n(-c2ccccc2)n1C	ATCC 6841	broth dilution	64 µg/mL
N/C(=N\N=C1CCCCCCCCCCC1)c1ccccn1	NCTC 10394		>50 µg/mL
CN(C)C(=O)CC(CSc1ccccc1)Nc1c(C(=O)N/N=C/c2ccc(Br)s2)cnc2cccc(C(F)(F)F)c12	ATCC 19542	resazurin	>100 µg/mL
CCN(CC)c1nc(C(N)=S)cnc1C(N)=O	1021		>100 µg/mL
CC[C@H]1OC(=O)[C@H](C)[C@@H](O[C@H]2C[C@@](C)(OC)[C@@H](O)[C@H](C)O2)[C@H](C)[C@@H](O[C@@H]2O[C@H](C)C[C@H](N(C)C)[C@H]2O)[C@](C)(O)C[C@@H](C)C(=O)[C@H](C)[C@@H](O)[C@]1(C)O	ATCC 6841		>8 µg/mL
CC(C)CSc1ccnc(C(N)=S)c1	1021		2000 µM
CN(C)C(=O)CC(CSc1ccccc1)Nc1c(C(=O)N/N=C/c2ccc(F)cc2)cnc2cc(F)ccc12	ATCC 19542	resazurin	5 µg/mL
C[C@H]1C[C@H](N)CN1c1cc2c(cc1F)c(=O)c(C(=O)O)cn2-c1ccc(F)cc1F	ATCC 6841		8 µg/mL
CN(C)C(=O)CC(CSc1ccccc1)Nc1c(C(=O)N/N=C/c2ccc(OC(F)(F)F)cc2)cnc2cccc(C(F)(F)F)c12	ATCC 19542	resazurin	5 µg/mL
CC1COc2c(N3CCN(C)CC3)c(F)cc3c(=O)c(C(=O)O)cn1c23	NCTC 10394		2 µg/mL
CCC(C)(C)c1ccc(/C=N/N=C(\N)c2ccccn2)cc1	NCTC 10394		6.3–12.5 µg/mL
CC(C)N=c1cc2n(-c3ccc(Cl)cc3)c3ccccc3nc-2cc1Nc1ccc(Cl)cc1	8521		13.3 µg/mL
Cc1cccc(Nc2nc(C(N)=S)cnc2C(N)=O)c1	1021		>100 µg/mL
CO[C@@]1(NC(=O)C(C(=O)O)c2ccc(O)cc2)C(=O)N2C(C(=O)O)=C(CSc3nnnn3C)CO[C@@H]21	1263		50 µg/mL
Cc1c(CN2CCN(C)CC2)cc(-c2ccc(Cl)cc2)n1-c1ccc(Cl)cc1	8 strains		3.1–12.5 µg/mL
COc1cc(CCc2ccc(O)cc2)cc(OC)c1OC			100 µg/mL
CCn1cc(C(=O)O)c(=O)c2cc(F)c(-c3nc(-c4ccccc4)cs3)cc21			3.12 µg/mL
CO[C@@]1(NC(=O)Cc2ccccc2)C(=O)N2C(C(=O)O)=C(COC(C)=O)CSC21	1030-8		25 µg/mL
CC(C)CNc1nc(C(N)=S)cnc1C(N)=O	1021		>100 µg/mL
CCn1cc(C(=O)O)c(=O)c2cc(F)c(-c3nc(C)cs3)cc21			12.5 µg/mL
COc1cc(O)cc(OC)c1C(=O)/C=C/c1ccccc1			100 µg/mL
CO[C@@]1(NC(=O)CCCC(N)C(=O)O)C(=O)N2C(C(=O)O)=C(COC(N)=O)CSC21	1004-8		>100 µg/mL
CCn1cc(C(=O)O)c(=O)c2cc(Cl)c(-c3nccs3)cc21			12.5 µg/mL
CCCCSc1ccnc(C(N)=S)c1	1021		250 µM
CC[C@H]1OC(=O)[C@H](C)[C@@H](O[C@H]2C[C@@](C)(OC)[C@@H](O)[C@H](C)O2)[C@H](C)[C@@H](O[C@@H]2O[C@H](C)C[C@H](N(C)C)[C@H]2O)[C@](C)(O)C[C@@H](C)CN(C)[C@H](C)[C@@H](O)[C@]1(C)O	ATCC 6841		>8 µg/mL
COc1cc(OC)c2c(ccc3cc(O)c(O)cc32)c1			25 µg/mL
Cc1ccnc(NS(=O)(=O)c2ccc(NC(=S)Nc3ccc(C(=O)O)c(O)c3)cc2)n1	ATCC 6841	broth dilution	64 µg/mL
CSCCC/C=N/NC(=O)c1cnc2cc(F)ccc2c1NC(CSc1ccccc1)CC(=O)N(C)C	ATCC 19542	resazurin	>100 µg/mL
CCn1cc(C(=O)O)c(=O)c2ccc(C3SCC(C)N3C)cc21			50 µg/mL
CCCCCCCCCCSc1ccnc(C(N)=S)c1	1021		1000 µM
CCc1cc(C(N)=S)ccn1	ATCC 6841		>250 µg/mL
CO[C@@]1(NC(=O)Cn2cnnn2)C(=O)N2C(C(=O)O)=C(CSc3nnc(C)s3)CSC21	914-8		25 µg/mL
Cc1c(NC(=S)Nc2ccc(C(=O)O)c(O)c2)c(=O)n(-c2ccccc2)n1C	ATCC 6841	broth dilution	64 µg/mL
C=CCN(CC=C)c1nc(C(N)=S)cnc1C(N)=O	1021		>100 µg/mL
CC1COc2c(N3CCN(C)CC3)c(F)cc3c(=O)c(C(=O)O)cn1c23	ATCC 6841		4 µg/mL
CCn1cc(C(=O)O)c(=O)c2cc(Cl)c(-c3nc(C)cs3)cc21			12.5 µg/mL
CCCCN(CCCC)c1nc(C(N)=S)cnc1C(N)=O	1021		>100 µg/mL
NC(=S)c1cc(SC2CCCCC2)ccn1	1021		1000 µM
CCn1cc(C(=O)O)c(=O)c2cc(F)c(-c3nc(C)c(C)s3)cc21			6.25 µg/mL
CN(C)C(=O)CC(CSc1ccccc1)Nc1c(C(=O)N/N=C/c2ccccc2F)cnc2cc(F)ccc12	ATCC 19542	resazurin	5 µg/mL

For reference, 6 entries again:

{"smiles": "CC1COc2c(N3CCN(C)CC3)c(F)cc3c(=O)c(C(=O)O)cn1c23", "strain": "ATCC 6841", "result": "4 µg/mL"}
{"smiles": "CCc1cc(C(N)=S)ccn1", "strain": "ATCC 6841", "result": ">250 µg/mL"}
{"smiles": "CCn1cc(C(=O)O)c(=O)c2cc(Cl)c(-c3nccs3)cc21", "result": "12.5 µg/mL"}
{"smiles": "CC1COc2c(N3CCN(C)CC3)c(F)cc3c(=O)c(C(=O)O)cn1c23", "strain": "NCTC 10394", "result": "2 µg/mL"}
{"smiles": "CCCCN(CCCC)c1nc(C(N)=S)cnc1C(N)=O", "strain": "1021", "result": ">100 µg/mL"}
{"smiles": "C[C@H]1COc2c(N3CCN(C)CC3)c(F)cc3c(=O)c(C(=O)O)cn1c23", "strain": "ATCC 6841", "result": "4 µg/mL"}